Patent EP4825846A1, “PREPARATION METHOD FOR URACIL COMPOUND AND USE OF URACIL COMPOUND” (dated 2026)

Columns and labels:
Assay in all cases: Determination of antifungal activity, mycelial growth inhibition by plate method
Phytophthora infestans = conditions: against P. infestans at a concentration of 1500 µg/mL; rye medium, 18°C, away from light
Magnaporthe oryzae = conditions: against M. oryzae at a concentration of 1500 µg/mL; CM medium, 28°C, away from light
Ustilaginoidea virens = conditions: against U. virens at a concentration of 1500 µg/mL; PSA medium, 25°C, away from light

SMILES | inhibition rate (Phytophthora infestans) | inhibition rate (Magnaporthe oryzae) | inhibition rate (Ustilaginoidea virens)
CC(C)COC(=O)Nc1cc(C(=O)O)c(Cl)cc1F | 100% | – | –
CCCCCCOC(=O)Nc1cc(C(=O)O)c(Cl)cc1F | 100% | 100% | 100%
CCCOC(=O)Nc1cc(C(=O)O)c(Cl)cc1F | 100% | – | –
O=C(Nc1cc(C(=O)O)c(Cl)cc1F)OC1CCCC1 | 100% | – | –
O=C(Nc1cc(C(=O)O)c(Cl)cc1F)OCCCl | 100% | – | –
CCCCOC(=O)Nc1cc(C(=O)O)c(Cl)cc1F | 100% | 100% | –
CC(C)OC(=O)Nc1cc(C(=O)O)c(Cl)cc1F | 100% | – | –
COC(=O)Nc1cc(C(=O)O)c(Cl)cc1F | 100% | – | –
CCOC(=O)Nc1cc(C(=O)O)c(Cl)cc1F | 100% | – | –
C=CCOC(=O)Nc1cc(C(=O)O)c(Cl)cc1F | 100% | 100% | –
CCCCCOC(=O)Nc1cc(C(=O)O)c(Cl)cc1F | 100% | 100% | 100%
O=C(Nc1cc(C(=O)O)c(Cl)cc1F)OCc1ccccc1 | 100% | – | –
CCCCCCCOC(=O)Nc1cc(C(=O)O)c(Cl)cc1F | 100% | – | 100%
O=C(Nc1cc(C(=O)O)c(Cl)cc1F)Oc1ccccc1 | 100% | 100% | –
